Laboratory results: PubChem BioAssay AID504761 (Drosophila RNAi Screening Center, 2011)
The deposit covers about 22,000 reagents; this is a random part of those with a known target gene and a result. Of all reagents, 116 (0.52%) were called active. 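Calls depend on retest data that are not deposited; infection was ranked per plate without normalising between plates; the unit of the infection score is not given.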 The raw values are shown without normalisation. Unmarked entries are inactive. A plus sign joins genes that one reagent is predicted to hit. No sequences are given here. Not given: the amount of reagent, the time to read-out.

Screen: 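Genome-wide fly cell screen for genes dengue virus requires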 (primary screen)
System: D.Mel-2 cells from Drosophila
Knock-down reagent: long dsRNA against Drosophila genes
Conditions: infection with dengue virus type 2; dose and infection time not stated
Read-out: 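Cells stained for dengue envelope protein and imaged; percent of infected cells per well on duplicate plates, ranked by infection, with stained nuclei counted for cell number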
Scale: infection score: higher = more virus-infected cells; cell count: higher = more cells in the well
Active means: 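Very low infection ranking in both replicate wells (chance probability at most 0.065), then a retest showing infection dropped 1.5-fold or more at p below 0.05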
Meaning of the calls: active = confirmed: knock-down lowers infection; inactive = not picked or not confirmed

| predicted target | amplicon | infection score, replicate 1 | infection score, replicate 2 | cell count, replicate 1 | cell count, replicate 2 |
| --- | --- | --- | --- | --- | --- |
| RpS13 | DRSC03419 | 5.81 | 5.66 | 2804 | 2084 |
| RpS13 | DRSC28558 | 9.44 | 9.39 | 837 | 1076 |
| sstn | DRSC10753 | 4.18 | 1.04 | 5527 | 6422 |
| sstn | DRSC29335 | 9.67 | 6.5 | 5587 | 3248 |
| PQBP1 | DRSC14393 | 5.97 | 4.79 | 6051 | 6179 |
| CG15169 | DRSC02470 | 2.04 | 19.1 | 6778 | 5923 |
| CG31524 | DRSC22014 | 1.94 | 0.82 | 6604 | 6954 |
| CG31524 | DRSC28999 | 0.25 | 30.9 | 406 | 6314 |
| Cpr47Eg | DRSC07330 | 27.1 | 13.4 | 6318 | 6169 |
| Fbxo42 | DRSC04529 | 3.4 | 17 | 6139 | 5985 |
| Fbxo42 | DRSC29911 | 11.9 | 9.32 | 6278 | 6180 |
| CG32191 | DRSC10522 | 5.57 | 4.38 | 6440 | 6024 |
| CG34330 | DRSC20043 | 4.19 | 2.34 | 5089 | 6276 |
| CG34330 | DRSC29637 | 15.9 | 24.8 | 5504 | 5359 |
| CG8097 | DRSC20079 | 6.42 | 12.5 | 5827 | 6180 |
| CG15576 | DRSC18064 | 6.16 | 0.44 | 5713 | 7247 |
| CG16989 | DRSC18535 | 10.2 | 10.2 | 6082 | 5927 |
| CG16989 | DRSC29403 | – | 1.93 | 340 | 571 |
| CG5181 | DRSC02825 | 3.59 | 1.61 | 5455 | 5964 |
| CG32163 | DRSC09442 | 1.01 | 4.18 | 6063 | 6717 |
| CG32163 | DRSC28736 | 28.7 | 21.1 | 4888 | 4548 |
| Coq5 | DRSC19849 | 15.2 | 9.96 | 6165 | 6735 |
| Coq5 | DRSC21371 | 2.51 | 2.64 | 6258 | 6517 |
| Coq5 | DRSC29685 | 20.7 | 18.3 | 5421 | 2847 |
| Cpr12A | DRSC19722 | 10.3 | 5.85 | 5687 | 6410 |
| dbr | DRSC00274 | 19 | 3.58 | 3424 | 5622 |
| CG12355 | DRSC09381 | 2.11 | 3.41 | 6308 | 6215 |
| CG12355 | DRSC09883 | 1.94 | 3.87 | 6452 | 6457 |

Records listed so far whose gene name begins with F or f (2):
| predicted target | amplicon | infection score, replicate 1 | infection score, replicate 2 | cell count, replicate 1 | cell count, replicate 2 |
| --- | --- | --- | --- | --- | --- |
| Fbxo42 | DRSC04529 | 3.4 | 17 | 6139 | 5985 |
| Fbxo42 | DRSC29911 | 11.9 | 9.32 | 6278 | 6180 |

Continued.
| predicted target | amplicon | infection score, replicate 1 | infection score, replicate 2 | cell count, replicate 1 | cell count, replicate 2 |
| --- | --- | --- | --- | --- | --- |
| CG3829 | DRSC04423 | 15.1 | 43.9 | 6117 | 4090 |
| Tina-1 | DRSC04317 | 14.1 | 12.7 | 6502 | 5484 |
| CG5612 | DRSC15844 | 3.37 | 8.84 | 6348 | 5179 |
| dila | DRSC06607 | 3.81 | 7.82 | 6905 | 6433 |
| dila | DRSC26509 | 0.64 | 3.94 | 6514 | 6453 |
| CG7695 | DRSC16289 | 3.58 | 7.18 | 6476 | 6223 |
| CG14377 + CG14374 | DRSC26405 | 1.33 | 1.16 | 6462 | 6388 |
| Mvl | DRSC16752 | 3.66 | 7.78 | 5417 | 5735 |
| spdo | DRSC13988 | 0.81 | 1.54 | 6167 | 6029 |
| spdo | DRSC24230 | 7.63 | 3.41 | 6321 | 5979 |
| CG13891 | DRSC08361 | 3.59 | 1.11 | 5647 | 5757 |
| CG13891 | DRSC25733 | 1.94 | 4.72 | 6456 | 6292 |
| Obp56h | DRSC06433 | 0.77 (active) | 0.27 | 5942 | 6222 |
| Obp56h | DRSC24257 | 5.57 | 1.2 | 6253 | 6089 |
| Art2 | DRSC00627 | 6.99 | 2.74 | 6607 | 7045 |
| CG5510 | DRSC15823 | 2.2 | 4.18 | 6446 | 6432 |
| DCX-EMAP | DRSC10012 | 1.74 | 2.07 | 5800 | 6338 |
| DCX-EMAP | DRSC10013 | 3.63 | 1.39 | 5752 | 6201 |
| DCX-EMAP | DRSC23492 | 8.01 | 20.6 | 7028 | 6520 |
| LRR | DRSC06444 | 1.6 | 9.58 | 6249 | 3791 |
| LRR | DRSC24790 | 5.86 | 11.1 | 5594 | 4029 |
| Bap170 | DRSC04964 | 15.5 | 34.3 | 6624 | 6133 |
| Bap170 | DRSC21826 | 20.2 | 8.11 | 6535 | 7049 |
| Bap170 | DRSC27559 | 36.9 | 32.4 | 6010 | 6157 |
| CG32050 (retired record) | DRSC10173 | 0.4 | 1.28 | 6564 | 6620 |
| CG32050 (retired record) | DRSC25184 | 5.41 | 11.6 | 6768 | 6552 |
| Cp7Fa | DRSC18032 | 10.3 | 11.9 | 4809 | 5228 |
| Cp7Fa | DRSC18033 | 7.89 | 11.5 | 1547 | 2731 |
| Cp7Fa | DRSC24279 | 4.69 | 5 | 6571 | 6244 |
| Zaf1 | DRSC16121 | 3.97 | 4.56 | 6355 | 5938 |
